Columns and labels:
[1] = test system: PC12 cell line transfected with α-synuclein over-expression plasmid; settings: 50 nM, 4 hours
[2] = test system: primary hippocampal neurons; experiment: Lysosomal fluorescence of primary hippocampal neurons; settings: 100 nM PAO, WT primary neuronal cells, vs control group
[3] = test system: PC12 cell line transfected with HTT (1-586aa) over-expression plasmid; settings: 25 nM, 50 nM, 75 nM and 100 nM, 4 hours, vs HTT OE group
[4] = test system: α-synuclein over-expressing cells; experiment: Intracellular α-synuclein protein level, ELISA and Western blot; settings: 75 nM and 100 nM
SH-SY5Y cells [5] = experiment: Autophagy markers LC3B and p62, Western blot and immunofluorescence; format: cell-based; settings: CBE 48 hours, then PAO at different concentrations 24 hours, Western blot
SH-SY5Y cells [6] = experiment: MTT cell viability, CBE model with Baf-A1 blockade; settings: 100 μM CBE and 25 nM, 50 nM and 75 nM PAO co-treated, vs 100 μM CBE
PI4KIIIα = PI4KIIIα (Homo sapiens, UniProt P42356); settings: previous studies; cited from earlier work
primary microglia = settings: 100 nM PAO, WT cells, at 8, 15, 30 and 60 minutes vs control group, p<0.05
[7] = test system: SH-SY5Y cell line transfected with α-synuclein over-expression plasmid; settings: PAO 6.25, 12.5, 25, 50, 75, 100 nM for 12 hours, vs α-syn-OE group
SH-SY5Y cells [8] = experiment: MTT cell viability, CBE-induced cell damage; settings: 6.25 nM, 12.5 nM, 25 nM, 50 nM, 75 M and 100 nM PAO for 24 hours with 100 μM CBE, vs 100 μM CBE-treated group
SH-SY5Y cells [9] = experiment: GlcCer content of cells by LC-MS; format: cell-based; settings: 100 μM CBE and 50 nM PAO co-treated, vs 100 μM CBE
SH-SY5Y cells [10] = experiment: Lyso-tracker labelling, CBE-induced lysosome aggregation; format: cell-based; settings: 50 nM or 75 nM PAO for 5 or 10 minutes after 100 μM CBE for 72 hours
[11] = test system: primary microglia lysosomes; experiment: BPB entry into microglial lysosomes (kiss-and-run), quenching of lysosomal fluorescence; settings: PAO + 1 mM BPB, WT microglia
[12] = test system: SH-SY5Y cell line transfected with α-synuclein over-expression plasmid; settings: 4 hours
SH-SY5Y cells [13] = experiment: Filipin staining of cholesterol storage caused by U18666A; format: cell-based; settings: 10 μM U18666A and 35 nM, 70 nM PAO, 24 hours, vs 10 μM U18666A alone
[14] = test system: primary microglia lysosomes; experiment: Recovery of microglial lysosomal fluorescence after BPB exit from lysosomes; settings: PAO after 60 min BPB pre-incubation, WT microglia
[15] = test system: primary microglia lysosomes; experiment: Microglial lysosomal exocytosis, LysoTracker live-cell imaging; settings: 100 nM PAO, WT microglia

Protein sequences, listed by entry. Tags and fused reporters are not part of them.
UniProt P42356, whole entry, looked up: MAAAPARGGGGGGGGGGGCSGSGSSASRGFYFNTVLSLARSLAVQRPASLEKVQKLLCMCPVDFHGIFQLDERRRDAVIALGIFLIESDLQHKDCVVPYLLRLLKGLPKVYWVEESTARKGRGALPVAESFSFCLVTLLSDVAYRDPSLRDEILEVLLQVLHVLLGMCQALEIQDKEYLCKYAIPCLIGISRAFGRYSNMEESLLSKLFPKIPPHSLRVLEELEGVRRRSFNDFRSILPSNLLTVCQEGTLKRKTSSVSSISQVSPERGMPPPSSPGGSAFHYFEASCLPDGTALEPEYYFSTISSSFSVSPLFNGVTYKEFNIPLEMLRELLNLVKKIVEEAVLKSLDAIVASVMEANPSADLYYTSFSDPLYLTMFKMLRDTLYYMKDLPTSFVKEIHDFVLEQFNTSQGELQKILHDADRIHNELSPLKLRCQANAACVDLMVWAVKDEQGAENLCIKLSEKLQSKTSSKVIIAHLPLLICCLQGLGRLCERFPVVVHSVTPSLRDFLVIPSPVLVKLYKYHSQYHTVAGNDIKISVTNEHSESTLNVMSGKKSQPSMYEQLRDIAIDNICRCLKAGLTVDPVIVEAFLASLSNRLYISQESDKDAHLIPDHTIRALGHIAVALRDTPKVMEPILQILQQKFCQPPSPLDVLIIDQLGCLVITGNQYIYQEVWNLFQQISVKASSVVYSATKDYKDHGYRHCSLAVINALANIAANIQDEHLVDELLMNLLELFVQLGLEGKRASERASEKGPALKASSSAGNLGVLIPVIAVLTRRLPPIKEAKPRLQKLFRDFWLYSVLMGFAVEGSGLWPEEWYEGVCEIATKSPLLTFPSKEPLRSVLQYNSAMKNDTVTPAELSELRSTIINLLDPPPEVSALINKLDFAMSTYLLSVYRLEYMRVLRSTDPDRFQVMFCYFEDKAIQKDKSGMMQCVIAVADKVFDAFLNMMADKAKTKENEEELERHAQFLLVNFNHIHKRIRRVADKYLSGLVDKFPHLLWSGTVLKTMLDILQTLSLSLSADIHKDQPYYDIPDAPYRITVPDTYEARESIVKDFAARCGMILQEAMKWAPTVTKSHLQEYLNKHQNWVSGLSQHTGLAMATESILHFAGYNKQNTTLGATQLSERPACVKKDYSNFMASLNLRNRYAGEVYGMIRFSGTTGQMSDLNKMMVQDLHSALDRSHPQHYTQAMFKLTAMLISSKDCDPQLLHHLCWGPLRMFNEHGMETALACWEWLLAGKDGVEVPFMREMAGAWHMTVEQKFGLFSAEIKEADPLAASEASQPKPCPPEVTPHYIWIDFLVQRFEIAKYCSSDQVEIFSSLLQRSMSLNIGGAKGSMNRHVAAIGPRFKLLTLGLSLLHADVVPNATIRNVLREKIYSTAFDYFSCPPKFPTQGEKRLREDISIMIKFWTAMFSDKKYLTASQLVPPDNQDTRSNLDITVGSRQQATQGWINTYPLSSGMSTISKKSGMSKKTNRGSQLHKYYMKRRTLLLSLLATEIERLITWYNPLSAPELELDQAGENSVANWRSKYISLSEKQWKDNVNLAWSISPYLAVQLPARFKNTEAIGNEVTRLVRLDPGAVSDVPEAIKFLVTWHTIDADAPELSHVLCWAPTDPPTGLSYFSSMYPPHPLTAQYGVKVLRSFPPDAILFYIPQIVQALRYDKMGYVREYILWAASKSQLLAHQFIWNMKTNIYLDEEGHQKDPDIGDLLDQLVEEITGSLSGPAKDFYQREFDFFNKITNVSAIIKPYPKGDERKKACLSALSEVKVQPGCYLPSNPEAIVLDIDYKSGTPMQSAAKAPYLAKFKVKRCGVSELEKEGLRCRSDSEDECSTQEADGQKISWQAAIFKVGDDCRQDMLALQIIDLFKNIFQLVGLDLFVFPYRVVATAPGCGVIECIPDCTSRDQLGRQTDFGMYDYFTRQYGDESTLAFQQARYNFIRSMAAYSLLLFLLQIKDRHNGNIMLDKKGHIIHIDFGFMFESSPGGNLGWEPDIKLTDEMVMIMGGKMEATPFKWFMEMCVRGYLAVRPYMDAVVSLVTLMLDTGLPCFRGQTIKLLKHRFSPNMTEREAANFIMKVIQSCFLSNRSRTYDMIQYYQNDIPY

Structure (SMILES): Cc1ccc([As]=O)cc1 (stereo not drawn)
- efflux of intracellular α-synuclein protein ([1]; 75 nM): promoted the efflux of intracellular α-synuclein protein

Structure (SMILES): O=[As]c1ccccc1 (stereo not drawn)
- lysosomal fluorescence intensity [2]: significantly decreased
- HTT protein secretion [3]: significantly promoted HTT protein secretion
- intracellular α-synuclein, Western blot ([4]; vs control group): lower than that in the control group
- intracellular α-synuclein protein level, ELISA ([4]; vs α-syn OE group): significantly reduced
- LC3B protein expression (SH-SY5Y cells [5]): dose-dependently promoted
- p62 protein level (SH-SY5Y cells [5]): inhibited
- cell viability (SH-SY5Y cells [6]): significantly increased
- concentration at which PAO acts mainly on PI4KIIIα (PI4KIIIα): < 5 µM
- extracellular ATP concentration (primary microglia): significantly increased
- cell viability rate [7]: significantly higher
- cell viability rate (SH-SY5Y cells [8]): significantly higher
- concentration of GlcCer in cells (SH-SY5Y cells [9]): decreased
- Lyso-tracker labeled positive cells (SH-SY5Y cells [10]): reduced
- discoloration of lysosomal fluorescence in BPB solution ([11]; at 10 seconds vs 0 seconds): 22.3%
- discoloration of lysosomal fluorescence in BPB solution ([11]; at 100 seconds vs 0 seconds): 62.8%
- discoloration of lysosomal fluorescence in BPB solution ([11]; at 400 seconds vs 0 seconds): 75.5%
- discoloration of lysosomal fluorescence in BPB solution ([11]; at 500 seconds vs 0 seconds): 78%
- extracellular α-synuclein protein level [12]: same capability of promoting extracellular α-synuclein protein levels
- extracellular α-synuclein protein level ([1]; 75 nM and 100 nM, vs α-synOE group without PAO): significantly increased
- Filipin staining fluorescence intensity (SH-SY5Y cells [13]): decreased
- average decrease in lysosomal fluorescence intensity ([14]; first 200 seconds vs 0 seconds): 41.8%
- increase (recovery) of lysosomal fluorescence ([14]; next 300 seconds, compared to 0 seconds): 26.4%
- discoloration (decrease of lysosomal fluorescence intensity) ([15]; at 100 seconds vs 0 seconds): 5.2%
- discoloration (decrease of lysosomal fluorescence intensity) ([15]; at 200 seconds vs 0 seconds): 47.4%
- discoloration (decrease of lysosomal fluorescence intensity) ([15]; at 400 seconds vs 0 seconds): 68.5%
- discoloration (decrease of lysosomal fluorescence intensity) ([15]; at 500 seconds vs 0 seconds): 70.1%
